Values from PubChem BioAssay AID1259414 (Drosophila RNAi Screening Center, 2018)
The deposit covers about 24,000 reagents; this is an unselected part of those that have a named target and a result. Of all reagents, about 1,210 (5%) are marked active. 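Inactive calls also include excluded dsRNAs with several or no targets, genes unexpressed in JW18, and well A1, regardless of score.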

- Aim: 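Genome-wide screen for host control of endosymbiont load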 (primary screen)
- System: Drosophila JW18 cells infected with Wolbachia
- Reagent: long dsRNA against Drosophila genes, 0.25 µg dsRNA per well of a 384-well plate
- Time to read-out: 5 days
- Challenge: cells persistently infected with Wolbachia before knock-down; no added drug
- Detection: 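Imaged fluorescence in situ signal for Wolbachia 23S rRNA per DAPI-counted host cell, given as a robust z-score within each plate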
- Scale: Wolbachia per cell robust z: higher = more Wolbachia per host cell than the plate typical
- Hit rule: 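Active if absolute robust z reaches 1.5 in two or more of three replicates, leaving out multi- or no-target dsRNAs, genes unexpressed in JW18 and A1 wells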

The opening 4 entries as a preview:
| target | amplicon | Wolbachia per cell robust z, rep 1 | Wolbachia per cell robust z, rep 2 | Wolbachia per cell robust z, rep 3 | outcome |
| --- | --- | --- | --- | --- | --- |
| CG6481 | DRSC19995 | -4.23 | -1.52 | -4.16 | active |
| Nup153 (Nucleoporin 153kD) | DRSC19904 | 0.567 | -6.24 | -0.493 | inactive |
| CG33003 | DRSC22419 | 0.813 | -0.0041 | 1.16 | inactive |
| CG33003 | DRSC26346 | -8.18 | 0.498 | -0.3 | inactive |

Main list, from the first entry:
| target | amplicon | Wolbachia per cell robust z, rep 1 | Wolbachia per cell robust z, rep 2 | Wolbachia per cell robust z, rep 3 | outcome |
| --- | --- | --- | --- | --- | --- |
| CG6481 | DRSC19995 | -4.23 | -1.52 | -4.16 | active |
| Nup153 (Nucleoporin 153kD) | DRSC19904 | 0.567 | -6.24 | -0.493 | inactive |
| CG33003 | DRSC22419 | 0.813 | -0.0041 | 1.16 | inactive |
| CG33003 | DRSC26346 | -8.18 | 0.498 | -0.3 | inactive |
| mRpL4 (mitochondrial ribosomal protein L4) | DRSC03562 | -0.369 | -0.329 | -1.48 | inactive |
| CG42811 | DRSC15367 | 0.799 | -0.531 | -1.26 | inactive |
| CG30177 | DRSC22680 | -0.912 | -0.361 | 0.197 | inactive |
| CR12842 (pseudo) | DRSC06188 | 0.596 | 0.221 | -2.09 | inactive |
| CR12842 (pseudo) | DRSC24909 | 0.476 | 1.23 | -9.67 | inactive |
| mura (murashka) | DRSC23145 | 1.32 | 1.38 | 1.43 | inactive |
| mura (murashka) | DRSC26645 | -4.19 | -2.66 | -0.627 | active |
| CG3739 | DRSC15510 | 0.826 | -5.54 | -0.621 | inactive |
| CG12384 | DRSC06145 | 1.14 | 0.705 | 1.3 | inactive |
| CG12384 | DRSC28713 | 0.0308 | 0.551 | 1.36 | inactive |
| CG15484 | DRSC02494 | -0.103 | 0.525 | 0.0222 | inactive |
| CG15484 | DRSC22836 | -0.317 | -0.379 | -2.54 | inactive |
| MED26 (Mediator complex subunit 26) | DRSC17126 | 2.29 | -0.159 | 1.02 | inactive |
| MED26 (Mediator complex subunit 26) | DRSC17147 | 0.0615 | 1.2 | 1.12 | inactive |
| MED26 (Mediator complex subunit 26) | DRSC17148 | 0.802 | 0.421 | 0.449 | inactive |
| CG15362 | DRSC00392 | -1.16 | -0.163 | -1.68 | inactive |
| Rpn5 (Regulatory particle non-ATPase 5) | DRSC12367 | 0.627 | 0.808 | -0.682 | inactive |
| Rpn5 (Regulatory particle non-ATPase 5) | DRSC28279 | 1.54 | 2.4 | 0.802 | active |
| S-Lap4 (Sperm-Leucylaminopeptidase 4) | DRSC10957 | -0.921 | -0.242 | -0.485 | inactive |
| S-Lap4 (Sperm-Leucylaminopeptidase 4) | DRSC25977 | -0.369 | -0.759 | -0.592 | inactive |
| CG11384 | DRSC18628 | -0.0175 | -0.501 | -0.085 | inactive |
| CG5664 | DRSC11782 | -1.95 | -0.677 | 0.673 | inactive |
| Golgin245 (Golgin-245) | DRSC04374 | -0.17 | 0.207 | -2.14 | inactive |
| Golgin245 (Golgin-245) | DRSC22012 | 0.361 | 0.738 | 0.317 | inactive |
| Golgin245 (Golgin-245) | DRSC30015 | 0.0694 | -0.88 | 0.905 | inactive |
| Poc1 (Proteome of centrioles 1) | DRSC09713 | -0.000704 | -0.684 | -0.274 | inactive |
| Poc1 (Proteome of centrioles 1) | DRSC28330 | 0.272 | 0.0991 | 0.512 | inactive |
| svp (seven up) | DRSC12899 | 0.337 | 0.964 | 1.15 | inactive |
| svp (seven up) | DRSC17075 | -0.164 | 0.221 | 0.431 | inactive |
| svp (seven up) | DRSC27764 | -0.113 | -4.45 | -0.848 | inactive |
| egl (egalitarian) | DRSC23380 | -1.72 | 0.547 | -0.36 | inactive |
| CG43376 | DRSC02537 | 1.13 | 0.411 | 1.15 | inactive |
| CG11698 | DRSC14355 | -1.56 | 0.205 | -1.12 | inactive |
| Cyp4e1 (Cytochrome P450 4e1) | DRSC07370 | -1.38 | -1.57 | -1.3 | inactive |
| Cyp4e1 (Cytochrome P450 4e1) | DRSC27154 | -0.644 | 0.00219 | 0.352 | inactive |
| CG11550 | DRSC14326 | -0.0814 | 0.777 | -1.71 | inactive |
| Letm1 | DRSC04476 | 0.837 | -0.476 | 0.523 | inactive |
| bma (black match) | DRSC09896 | -0.44 | -1.11 | -0.463 | inactive |
| bma (black match) | DRSC10164 | -0.794 | -6.61 | -1.45 | inactive |
| bma (black match) | DRSC28408 | 0.269 | -0.813 | -0.305 | inactive |
| CG42494 | DRSC40572 | 0.552 | 0.318 | 1.43 | inactive |
| CG31195 | DRSC13440 | 0.759 | 0.757 | 0.00385 | inactive |
